This data set deals with SARS-CoV-2 spike pseudovirus. It counts as cell-based.

Each structure is given as a SMILES string. The amount applied is not stated for every result.

Turning to `C=CCc1cc(-c2cc(CC=C)c3oc(=O)n(Cc4nnc(-c5ccc(OC)cc5)o4)c3c2)c2oc(=O)n(Cc3nnc(-c4ccc(OC)cc4)o3)c2c1` [Compound 6p], the “Times greater inhibitory activity against pseudovirus entry than 6a” value came to 2.97 times.

For the compound `C=CCc1cc(-c2cc(CC=C)c3oc(=O)n(Cc4nnc(-c5ccccc5F)o4)c3c2)c2oc(=O)n(Cc3nnc(-c4ccccc4F)o3)c2c1` [Compound 6h], the “Fold loss in antiviral entry activity relative to 6a” value turned out to be 2.10 fold.

The values above are taken from article PMC8471451 (Pharmaceuticals, 2021).
